Publication PMC8546149 (Nature Communications, 2021)
Marks after values point to notes of the source that are not given here.

experiment: general procedure: Fmoc solid-phase peptide synthesis; SynPhase PSDRAM lanterns and Rink-amide resin; Wang resin for RhB-PB10; HCTU/DIEA; DIC/Oxyma for RhB-PB10; settings: conjugation step

Substance	conjugation yield
Van-C(H-MLFG-Tz)	45%
Van-C(fM-Cha-FG-Tz)	36%
Van-C(fM-Nle-FG-Tz)	42%
Van-C(fML-Phe(4-F)-G-Tz)	47%
Van-C(fML-Tyr-G-Tz)	46%
Van-C(fMLF-Leu-Tz)	47%
Van-C(fMLF-Lys-Tz)	44%
Van-C(fMLF-Pro-Tz)	46%
Van-C(fMLFG-(PEG3)2-Tz)	33%
Van-C(fMLFG-PEG3-Tz)	38%
Van-C(fMLFG-PEG4-Tz)	42%
Van-C(fMLFG-Tz)	47%
Van-C(fNle-LFG-Tz)	37%
fMLF-Lys(B*)-NH2	84%

same assay, conditions: conjugation step, cyclic, sequence written open

Substance	conjugation yield
Van-N(fMLFG-(PEG3)2-Tz)	34%
Van-N(fMLFG-PEG3-Tz)	28%
Van-N(fMLFG-Tz)	36%
Van-V(fMLFG-(PEG3)2-Tz)	17%
Van-V(fMLFG-PEG3-Tz)	30%
Van-V(fMLFG-Tz)	20%

same assay, conditions: whole synthesis

Substance	isolated yield
H-MLFG-Pra-NH2	46%
f-Nle-LFG-Pra-NH2	34%*
fM-Cha-FG-Pra-NH2	31%*
fM-Nle-FG-Pra-NH2	34%*
fML-Phe(4-F)-G-Pra-NH2	32%
fML-Tyr-G- Pra-NH2	43%
fMLF-Leu-Pra-NH2	25%*
fMLF-Lys-Pra-NH2	40%
fMLF-Pro-Pra-NH2	41%
fMLFG-(PEG3)3-Pra-NH2	15%
fMLFG-PEG3-Pra-NH2	13%
fMLFG-Pra-NH2	14%
